Legend:
[1] = test system: Staphylococcus aureus (ATCC 29213); experiment: Biocidal efficacy sandwich test of melamine-halamine containing paint; settings: 5% compound in paint
[2] = test system: Escherichia coli (ATCC 25922); experiment: as above; settings: 5% compound in paint

O=C(c1cc(C(=O)N(Cl)c2nc(N(Cl)Cl)nc(N(Cl)Cl)n2)cc(C(=O)N(Cl)c2nc(N(Cl)Cl)nc(N(Cl)Cl)n2)c1)N(Cl)c1nc(N(Cl)Cl)nc(N(Cl)Cl)n1
Log reduction ([1]; contact time 0 min): 0 log
Total Bacterial Concentration ([1]; contact time 0 min): 4.47 × 10^6 cfu/mL
Log reduction ([1]; contact time 30 min): 0.49 log
Total Bacterial Concentration ([1]; contact time 30 min): 1.53 × 10^6 cfu/mL
Log reduction ([1]; contact time 60 min): 0.28 log
Total Bacterial Concentration ([1]; contact time 60 min): 2.52 × 10^6 cfu/mL
Log reduction ([1]; contact time 120 min): 2.67 log
Total Bacterial Concentration ([1]; contact time 120 min): 1.02 × 10^4 cfu/mL
Log reduction ([2]; contact time 0 min): 0 log
Total Bacterial Concentration ([2]; contact time 0 min): 6.19 × 10^6 cfu/mL
Log reduction ([2]; contact time 30 min): 0.35 log
Total Bacterial Concentration ([2]; contact time 30 min): 2.75 × 10^6 cfu/mL
Log reduction ([2]; contact time 60 min): 1.36 log
Total Bacterial Concentration ([2]; contact time 60 min): 2.73 × 10^5 cfu/mL
Log reduction ([2]; contact time 120 min): 2.44 log
Total Bacterial Concentration ([2]; contact time 120 min): 2.25 × 10^4 cfu/mL
